System: VEGF production by retinal epithelial cells (ARPE-19)

Substance: SBT-100: 15 kDa camelid single domain antibody (VHH), SEQ ID NO: 1, binds both STAT3 and KRAS
- Time to inhibit VEGF protein production to near zero (human retinal epithelial cells): ≤ 12 h
- Duration of biological effect on VEGF of a single administration (retinal epithelial cells in vitro): at least 48 hours

Source: patent US20260184773A1, “THERAPEUTIC SINGLE DOMAIN ANTIBODY” (priority 2021, published 2026)
